Among the data in article PMC5335569 are stoichiometry N (molar ratio CB/CA), Kd, event 2 (assigned by the paper to formation of the CTX heterodimer) and dH, event 2 (assigned by the paper to formation of the CTX heterodimer) values, retold here.

Values joined by “and” are separate entries in the source; they are usually repeats but may differ in a detail not shown here. Equal values may be shown once.

Assay [1] addresses Crotoxin B (Crotalus durissus terrificus) (UniProt P62022). Description: SEC.
The target is the same in assay [2]. Description: ITC. (In ITC the heat of successive injections is recorded.)

Crotoxin A (natural protein): the stoichiometry N (molar ratio CB/CA) in assay [1] is 1.04 and 0.96 and 1.01. In addition, in assay [2], the Kd, event 2 (assigned by the paper to formation of the CTX heterodimer) stood at 160 nM and the dH, event 2 (assigned by the paper to formation of the CTX heterodimer) is -26 kcal/mol.
